Data taken from patent publication US7884199B2, “HCV NS3-NS4 protease resistance mutants” (priority 2003, dated 2011).
Entries after “also recorded” stand apart in the source; their conditions may differ.

Assays:
Assay in all cases: FRET enzyme assay, Ki
Type in all cases: biochemical
[1] = target: T1, A156S mutant HCV NS3 serine protease domain (Hepatitis C virus genotype 1b, UniProt Q9WMX2, A1182S)
T1 construct: A DNA fragment encoding residues Ala^1-Ser^181 of the HCV NS3 protease (GenBank CAB46913); hexa-histidine (C); made in house; host or cells: E. coli BL21/DE3 pLysS

[2] = target: T2, D168V mutant HCV NS3 serine protease domain (Hepatitis C virus genotype 1b, UniProt Q9WMX2, D1194V)
T2 construct: A DNA fragment encoding residues Ala^1-Ser^181 of the HCV NS3 protease (GenBank CAB46913); hexa-histidine (C); made in house; host or cells: E. coli BL21/DE3 pLysS

[3] = target: T3, D168A mutant HCV NS3 serine protease domain (Hepatitis C virus genotype 1b, UniProt Q9WMX2, D1194A)
T3 construct: A DNA fragment encoding residues Ala^1-Ser^181 of the HCV NS3 protease (GenBank CAB46913); hexa-histidine (C); made in house; host or cells: E. coli BL21/DE3 pLysS

[4] = target: T4, A156T mutant HCV NS3 serine protease domain (Hepatitis C virus genotype 1b, UniProt Q9WMX2, A1182T)
T4 construct: A DNA fragment encoding residues Ala^1-Ser^181 of the HCV NS3 protease (GenBank CAB46913); hexa-histidine (C); made in house; host or cells: E. coli

[5] = target: T5, A156V mutant HCV NS3 serine protease domain (Hepatitis C virus genotype 1b, UniProt Q9WMX2, A1182V)
T5 construct: A DNA fragment encoding residues Ala^1-Ser^181 of the HCV NS3 protease (GenBank CAB46913); hexa-histidine (C); made in house; host or cells: E. coli

Substance: BILN 2061
- Ki [1]: 112 nM
- Ki higher than against the wild type protease [1]: 6 fold
- Ki [2]: > 1200 nM
- less susceptible as compared to the wild type protease [2]: at least 63 fold
- inhibition of the protease ([2]; up to 1.2 μM BILN 2061): not inhibited; also recorded: No inhibition
- Ki [3]: > 1200 nM
- less susceptible as compared to the wild type protease [3]: at least 63 fold
- inhibition of the protease ([3]; up to 1.2 μM BILN 2061): not inhibited; also recorded: No inhibition
- Ki [4]: > 1200 nM
- Ki higher / less susceptible as compared to the wild type protease [4]: at least 63 fold
- inhibition of the protease ([4]; up to 1.2 μM BILN 2061): not inhibited; also recorded: No inhibition
- Ki [5]: > 1200 nM
- Ki higher / less susceptible as compared to the wild type protease [5]: at least 63 fold
- inhibition of the protease ([5]; up to 1.2 μM BILN 2061): not inhibited; also recorded: No inhibition
